From ChEMBL document CHEMBL5321277, “Discovery and Mechanism Study of SARS-CoV-2 3C-like Protease Inhibitors with a New Reactive Group” (J Med Chem, 2023)

Target: Replicase polyprotein 1ab (Severe acute respiratory syndrome coronavirus 2) (UniProt P0DTD1)
Assay: Inhibition of N-terminal His6-tagged recombinant full length SARS-CoV-2 3CLpro expressed in Escherichia coli BL21(DE3) assessed as Kobs, ratio of Kinact/Ki using MCA-AVLQSGFR-Lys(Dnp)-Lys-NH2 as fluorogenic substrate incubated for 3 hrs by FRET assay

N#CSCC(=O)N1c2ccccc2CCc2ccc(Cl)cc21
Kobs: 1130 M⁻¹ s⁻¹
